B1: 1.1.128-1 (antibody, human IgG1, kappa)
heavy: QVQLLQSGAAVTKPGASVRVSCEASGYNIRDYFIHWWRQAPGQGLQWVGWINPKTGQPNNPRQFQGRVSLTRHASWDFDTFSFYMDLKALRSDDTAVYFCARQRSDYWDFDVWGSGTQVTVSSASTKGPSVFPLAPSSKSTSGGTAALGCLVKDYFPEPVTVSWNSGALTSGVHTFPAVLQSSGLYSLSSVVTVPSSSLGTQTYICNVNHKPSNTKVDKKVEPKSCDKTHTCPPCPAPELLAGPDVFLFPPKPKDTLMISRTPEVTCVVVDVSHEDPEVKFNWYVDGVEVHNAKTKPREEQYNSTYRVVSVLTVLHQDWLNGKEYKCKVSNKALPLPEEKTISKAKGQPREPQVYTLPPSREEMTKNQVSLTCLVKGFYPSDIAVEWESNGQPENNYKTTPPVLDSDGSFFLYSKLTVDKSRWQQGNVFSCSVLHEALHSHYTQKSLSLSPGK
light: not shown
B2: 1.1.129-1 (antibody, human IgG1, kappa)
heavy: QVQLLQSGAAVTKPGASVRVSCEASGYNIRDYFIHWWRQAPGQGLQWVGWINPKTGQPNNPRQFQGRVSLTRHASWDFDTFSFYMDLKALRSDDTAVYFCARQRSDYWDFDVWGSGTQVTVSSASTKGPSVFPLAPSSKSTSGGTAALGCLVKDYFPEPVTVSWNSGALTSGVHTFPAVLQSSGLYSLSSVVTVPSSSLGTQTYICNVNHKPSNTKVDKKVEPKSCDKTHTCPPCPAPELLAGPDVFLFPPKPKDTLMISRTPEVTCVVVDVSHEDPEVKFNWYVDGVEVHNAKTKPREEQYNSTYRVVSVLTVLHQDWLNGKEYKCKVSNKALPLPEEKTISKAKGQPREPQVYTLPPSREEMTKNQVSLTCLVKGFYPSDIAVEWESNGQPENNYKTTPPVLDSDGSFFLYSKLTVDKSRWQQGNVFSCSVLHEALHSHYTQKSLSLSPGK
light: not shown
B3: 1.1.130-1 (antibody, human IgG1, kappa)
heavy: QVQLLQSGAAVTKPGASVRVSCEASGYNIRDYFIHWWRQAPGQGLQWVGWINPKTGQPNNPRQFQGRVSLTRHASWDFDTFSFYMDLKALRSDDTAVYFCARQRSDYWDFDVWGSGTQVTVSSASTKGPSVFPLAPSSKSTSGGTAALGCLVKDYFPEPVTVSWNSGALTSGVHTFPAVLQSSGLYSLSSVVTVPSSSLGTQTYICNVNHKPSNTKVDKKVEPKSCDKTHTCPPCPAPELLAGPDVFLFPPKPKDTLMISRTPEVTCVVVDVSHEDPEVKFNWYVDGVEVHNAKTKPREEQYNSTYRVVSVLTVLHQDWLNGKEYKCKVSNKALPLPEEKTISKAKGQPREPQVYTLPPSREEMTKNQVSLTCLVKGFYPSDIAVEWESNGQPENNYKTTPPVLDSDGSFFLYSKLTVDKSRWQQGNVFSCSVLHEALHSHYTQKSLSLSPGK
light: not shown
B4: 1.1.131-1 (antibody, human IgG1, kappa)
heavy: QVQLLQSGAAVTKPGASVRVSCEASGYNIRDYFIHWWRQAPGQGLQWVGWINPKTGQPNNPRQFQGRVSLTRHASWDFDTFSFYMDLKALRSDDTAVYFCARQRSDYWDFDVWGSGTQVTVSSASTKGPSVFPLAPSSKSTSGGTAALGCLVKDYFPEPVTVSWNSGALTSGVHTFPAVLQSSGLYSLSSVVTVPSSSLGTQTYICNVNHKPSNTKVDKKVEPKSCDKTHTCPPCPAPELLAGPDVFLFPPKPKDTLMISRTPEVTCVVVDVSHEDPEVKFNWYVDGVEVHNAKTKPREEQYNSTYRVVSVLTVLHQDWLNGKEYKCKVSNKALPLPEEKTISKAKGQPREPQVYTLPPSREEMTKNQVSLTCLVKGFYPSDIAVEWESNGQPENNYKTTPPVLDSDGSFFLYSKLTVDKSRWQQGNVFSCSVLHEALHSHYTQKSLSLSPGK
light: not shown
B5: 1.1.132-1 (antibody, human IgG1, kappa)
heavy: QVQLLQSGAAVTKPGASVRVSCEASGYNIRDYFIHWWRQAPGQGLQWVGWINPKTGQPNNPRQFQGRVSLTRHASWDFDTFSFYMDLKALRSDDTAVYFCARQRSDYWDFDVWGSGTQVTVSSASTKGPSVFPLAPSSKSTSGGTAALGCLVKDYFPEPVTVSWNSGALTSGVHTFPAVLQSSGLYSLSSVVTVPSSSLGTQTYICNVNHKPSNTKVDKKVEPKSCDKTHTCPPCPAPELLAGPDVFLFPPKPKDTLMISRTPEVTCVVVDVSHEDPEVKFNWYVDGVEVHNAKTKPREEQYNSTYRVVSVLTVLHQDWLNGKEYKCKVSNKALPLPEEKTISKAKGQPREPQVYTLPPSREEMTKNQVSLTCLVKGFYPSDIAVEWESNGQPENNYKTTPPVLDSDGSFFLYSKLTVDKSRWQQGNVFSCSVLHEALHSHYTQKSLSLSPGK
light: not shown
B6: 1.1.133-1 (antibody, human IgG1, kappa)
heavy: QVQLLQSGAAVTKPGASVRVSCEASGYNIRDYFIHWWRQAPGQGLQWVGWINPKTGQPNNPRQFQGRVSLTRHASWDFDTFSFYMDLKALRSDDTAVYFCARQRSDYWDFDVWGSGTQVTVSSASTKGPSVFPLAPSSKSTSGGTAALGCLVKDYFPEPVTVSWNSGALTSGVHTFPAVLQSSGLYSLSSVVTVPSSSLGTQTYICNVNHKPSNTKVDKKVEPKSCDKTHTCPPCPAPELLAGPDVFLFPPKPKDTLMISRTPEVTCVVVDVSHEDPEVKFNWYVDGVEVHNAKTKPREEQYNSTYRVVSVLTVLHQDWLNGKEYKCKVSNKALPLPEEKTISKAKGQPREPQVYTLPPSREEMTKNQVSLTCLVKGFYPSDIAVEWESNGQPENNYKTTPPVLDSDGSFFLYSKLTVDKSRWQQGNVFSCSVLHEALHSHYTQKSLSLSPGK
light: not shown
B7: 1.1.134-1 (antibody, human IgG1, kappa)
heavy: QVQLLQSGAAVTKPGASVRVSCEASGYNIRDYFIHWWRQAPGQGLQWVGWINPKTGQPNNPRQFQGRVSLTRHASWDFDTFSFYMDLKALRSDDTAVYFCARQRSDYWDFDVWGSGTQVTVSSASTKGPSVFPLAPSSKSTSGGTAALGCLVKDYFPEPVTVSWNSGALTSGVHTFPAVLQSSGLYSLSSVVTVPSSSLGTQTYICNVNHKPSNTKVDKKVEPKSCDKTHTCPPCPAPELLAGPDVFLFPPKPKDTLMISRTPEVTCVVVDVSHEDPEVKFNWYVDGVEVHNAKTKPREEQYNSTYRVVSVLTVLHQDWLNGKEYKCKVSNKALPLPEEKTISKAKGQPREPQVYTLPPSREEMTKNQVSLTCLVKGFYPSDIAVEWESNGQPENNYKTTPPVLDSDGSFFLYSKLTVDKSRWQQGNVFSCSVLHEALHSHYTQKSLSLSPGK
light: not shown
B8: 1.1.135-1 (antibody, human IgG1, kappa)
heavy: QVQLLQSGAAVTKPGASVRVSCEASGYNIRDYFIHWWRQAPGQGLQWVGWINPKTGQPNNPRQFQGRVSLTRHASWDFDTFSFYMDLKALRSDDTAVYFCARQRSDYWDFDVWGSGTQVTVSSASTKGPSVFPLAPSSKSTSGGTAALGCLVKDYFPEPVTVSWNSGALTSGVHTFPAVLQSSGLYSLSSVVTVPSSSLGTQTYICNVNHKPSNTKVDKKVEPKSCDKTHTCPPCPAPELLAGPDVFLFPPKPKDTLMISRTPEVTCVVVDVSHEDPEVKFNWYVDGVEVHNAKTKPREEQYNSTYRVVSVLTVLHQDWLNGKEYKCKVSNKALPLPEEKTISKAKGQPREPQVYTLPPSREEMTKNQVSLTCLVKGFYPSDIAVEWESNGQPENNYKTTPPVLDSDGSFFLYSKLTVDKSRWQQGNVFSCSVLHEALHSHYTQKSLSLSPGK
light: not shown

Legend:
Assay in all cases: cell-based or functional assay
[1] = target: HIV-1 envelope glycoprotein (gp120) of virus 92US727 (HIV-1)
[2] = target: HIV-1 envelope glycoprotein (gp120) of virus VS001 (HIV-1)
[3] = target: HIV-1 envelope glycoprotein (gp120) of virus 7141 (HIV-1)

| Binder | Neutralization IC50 [1] | Neutralization IC50 [2] | Neutralization IC50 [3] |
| --- | --- | --- | --- |
| B1 | > 28.3 µg/mL | 0.67 µg/mL | 9.5 µg/mL |
| B2 | > 29.7 µg/mL | 2.09 µg/mL | > 29.7 µg/mL |
| B3 | > 27.3 µg/mL | 1.67 µg/mL | 16.7 µg/mL |
| B4 | > 31.9 µg/mL | 0.57 µg/mL | 16.4 µg/mL |
| B5 | 2.26 µg/mL | 0.14 µg/mL | 3.39 µg/mL |
| B6 | 2.27 µg/mL | 0.16 µg/mL | 3.38 µg/mL |
| B7 | 4.23 µg/mL | 0.22 µg/mL | 3.15 µg/mL |
| B8 | 5.61 µg/mL | 0.31 µg/mL | 4 µg/mL |

From patent US20220089698A1, “ANTIBODIES THAT TARGET HIV GP120 AND METHODS OF USE” (published 2022)
